# Measured values as given in a flash point compilation (Sun et al. 2020).
row,Structure (SMILES),flash point [°C]
1,Clc1ccccc1CBr [1-(bromomethyl)-2-chlorobenzene],109.00
2,CC(=O)CBr [1-bromopropan-2-one],51.00
3,C=CS(=O)(=O)C=C [1-ethenylsulfonylethene],103.00
4,C[CH2][Sn]([Br])([CH2]C)[CH2]C [bromo(triethyl)stannane],99.00
5,ClP(Cl)c1ccccc1 [dichloro(phenyl)phosphane],102.00
6,CCCCOP(=O)(OCCCC)OCCCC [tributyl phosphate],146.00
